Primary screen of a compound library

The filed quantity is “Percent Effect” (%). The controls that fix the scale are not given in the record; negative values are as filed. The entries come from a sample that favours strong results. Two or more numbers in one place are separate tests of the same structure; such repeats can differ widely. A dash means the value is not listed here; it may have been measured.

Mtb glucose medium: 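Growth of Mycobacterium tuberculosis over 3 days (7H9 medium with glucose and tyloxapol); the read-out is not stated. Compounds at 50 µM. Direction is inferred from retests: higher values go with more growth inhibition. Size under these conditions: about 69,000 compounds, about 760 of them at 50% or above in at least one test.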
Mtb cholesterol medium: 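Whole-cell growth test on Mycobacterium tuberculosis, read after 4 days in a medium based on cholesterol and the lipid DPPC; the read-out is not stated. Concentration: 50 µM. The record gives no direction; compounds that gave an IC50 in retests scored well above the rest, so higher reads as more growth inhibition. Of about 69,000 compounds tested this way, about 370 (0.54%) reached 50% or more in at least one test.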

| # | Compound | Mtb glucose medium | Mtb cholesterol medium |
|---|---|---|---|
| 1 | `CC(=O)NC1CC(C)(C)Cc2c1cnn2-c1cccc(F)c1` (centres undefined) | 7.831 and 30 | - |
| 2 | `Fc1cccc(CN2CCC(c3noc(-c4ccccn4)n3)CC2)c1F` | 17.87 | - |
| 3 | `Cn1cc(CNCCNc2ncc(Cl)cc2Cl)cn1` | -35.49 | - |
| 4 | `CCc1cc(C(=O)N2CCC(c3cc4ncccc4cn3)CC2)no1` | -34.91 | -32.83 |
| 5 | `CC(Cn1cccn1)NC(=O)C1=Cc2ccccc2OC1` (centres undefined) | -0.8495 | - |
| 6 | `CN(Cc1nc(Cc2cccc(C(F)(F)F)c2)no1)C1CCOCC1` | 14.39 and 21.78 | - |
| 7 | `O=C(c1ccnc(N2CCOC(c3ccc(Cl)cc3)C2)c1)N1CCCC1` (centres undefined) | 11.25 | - |
| 8 | `O=C(O)C(F)(F)F.O=C(O)C(F)(F)F.[H][C@@]12CN(Cc3ccncc3)C[C@]1([H])C(=O)N(c1ccsc1)C2` | -3.115 | - |
| 9 | `COCc1nc2cc(NCc3ccc(C)o3)ccc2o1` | - | 9.304 and 16.05 |
| 10 | `CNC(=O)c1c(C)cccc1NCc1nnc(C2CC2)o1` | - | -7.167 |
| 11 | `Cc1cc(NC(=O)c2ccc(C)c(F)c2)[nH]n1` | -8.067 | - |
| 12 | `O=c1c2ccccc2cnn1Cc1cncn1C1CC1` | -5.649 and -7.001 | - |
| 13 | `CN(C)c1cc(C(=O)Nc2ccccc2C(=O)NC(C)(C)C)ccn1` | 13.28 and 13.85 | 54.55 |
| 14 | `CCn1ccc(-c2cc(NCCCOc3ccccc3C)nc(C)n2)n1` | - | 19.35 |
| 15 | `CS(=O)(=O)NCc1ccc(NC(=O)CC2=CCCCC2)cc1` | - | -11.41 and -15.87 |
| 16 | `Cc1c(C(=O)NC2CCCC2)nnn1-c1ccccc1` | 12.39 and 8.709 | 6.839 |
| 17 | `CCOc1ccc(N2CCCN=C2NC(=O)c2ccc(OC)cc2)cc1` | -4.42 | - |
| 18 | `CC(Oc1ccc2c(c1)OCO2)C(=O)N1CCC(N2CCOCC2)CC1` (centres undefined) | -6.208 | - |
| 19 | `O=C(NCCOc1ncc(Cl)cc1Cl)c1cccnc1` | -16.46 | -2.143 and -8.584 |
| 20 | `c1ccc(C2CN(C3CC3)CC3(CCN(Cc4cscn4)CC3)C2)cc1` (centres undefined) | 66.67 and 48.16 | 50.74 |
| 21 | `CCCN1CCC(Nc2cc(-c3ccccc3)ccc2OC)CC1` | 71.32 | 52.38 and 60.39 |
| 22 | `CC(=O)Nc1nc(C(=O)NCc2ccnc(N3CCCC3)c2)cs1` | -15.77 | -20.38 |
| 23 | `c1cc(CNc2nnc(Cc3ccsc3)o2)cs1` | 24.84 | 5.696 |
| 24 | `O=S(=O)(Cc1ccc(Br)cc1)NCCO` | -3.975 and 69.73 | - |
| 25 | `Cc1nc(C2CCCN2Cc2cc(Cl)c3c(c2)OCO3)no1` (centres undefined) | 44.74 | 47.82 |
| 26 | `COC(=O)c1cccc(NCC(=O)NC(N)=O)c1` | -24.9 | -26.36 |
| 27 | `CCc1ncc(CN(CCc2ccccc2)Cc2cccs2)cn1.O=C(O)CC(O)(CC(=O)O)C(=O)O` | 55.69 | 53.61 and 71.34 |
| 28 | `Cn1c(CCNC(=O)Nc2cn[nH]c2)nc2ccc(F)cc21` | -5.378 and 1.467 | - |
| 29 | `Cc1cc2c(cc1Cl)C=CC1(CCN(CC(=O)N3CCCC3)CC1)O2` | 7.614 | 6.952 and 38.48 |
| 30 | `CCn1nc(C)cc1C(=O)NCc1nc(C)cc(C)n1` | 18.24 | 7.294 |
| 31 | `COc1cc(Cl)c(NCc2c(C)noc2C)cc1OC` | -35.74 | -8.892 |
| 32 | `O=C(O)C(F)(F)F.[H][C@@]12CCN(Cc3ccco3)CC[C@]1([H])[C@H](COCC1CC1)CN(C)C2=O` | 0.9186 and -1.107 | - |
| 33 | `CCCc1cc(C(=O)N2Cc3ccccc3C2)[nH]n1` | -13.39 | - |
| 34 | `O=C(NCCn1cccn1)c1nnc2ccccc2n1` | 29.11 | - |
| 35 | `Cc1cccc(N2CCN(CCS(=O)(=O)c3ccc(Br)cc3)CC2)c1C` | 56.95 | - |
| 36 | `Cc1nc(CN(C)CC2CCCN2c2cccnn2)nc2ccccc12` (centres undefined) | 64.16 | - |
| 37 | `Br.O=C(CN(C1=NCCCC1)c1ccccc1)c1ccc2c(c1)OCCO2` | 27.43 | 9.641 |
| 38 | `COc1cccc(S(=O)(=O)CCN2CCCCC2)c1` | -6.005 | -24.81 |
| 39 | `Cc1ccc(N2CCC3(CC2)CNC(=O)CO3)nn1.O=C(O)C(F)(F)F` | 17.16 | - |
| 40 | `c1cnnc(N2CCCC2CNCc2nc3ccccc3o2)c1` (centres undefined) | 55.87 | 51.27 |
| 41 | `O=C(CCc1ccc(=O)[nH]n1)N1CCCC(COc2ccc(F)cc2)C1` (centres undefined) | 4.541 and -5.16 | - |
| 42 | `CC(CNS(C)(=O)=O)c1ccc(F)c(F)c1` (centres undefined) | -6.709 and 16.53 | -4.576 |
| 43 | `O=C(Cn1cc(I)cn1)N1CCCC1` | 20.05 | 10.03 |
| 44 | `N#Cc1nccnc1N1CCC(Cc2ccccc2)C1` (centres undefined) | - | 23.05 |
| 45 | `O=C(NC1CCCN(CCCc2ccccc2)C1)c1ccncc1` (centres undefined) | 15.71 | 6.528 |
| 46 | `CC(=O)N1CCCC(c2ccccn2)C1` (centres undefined) | -33.15 | -5.024 |
| 47 | `N[C@@H]1CCC[C@@H](Oc2ccc(F)cc2Oc2ccccc2)[C@@H]1O` | 23.9 | -2.167 |
| 48 | `Cc1ccc(S(=O)(=O)N2CCc3nc(C4CCNCC4)ncc3C2)cc1.Cl` | 77.19 | 16.59 |
| 49 | `Br.O=C(CN(C1=NCCCC1)c1ccccc1)c1ccccc1` | -36.45 and -5.856 | -12.03 |
| 50 | `CN(C)c1cc(C(=O)N2CCCC2c2cnn(C)c2)ccn1` (centres undefined) | -26.06 | - |
| 51 | `CC(C)c1cc(CN2CCNCC2)no1` | 85.24 | - |
| 52 | `COc1ccc(F)cc1C(=O)C1CCCN(Cc2cnc(C)s2)C1` (centres undefined) | 21.79 and 5.18 | - |
| 53 | `CCn1nnc(NCc2cc(Cl)cc(Cl)c2OC)n1` | 3.859 | - |
| 54 | `CCc1nc(Cn2nc(COC)oc2=O)cs1` | 50.48 | 35.28 |
| 55 | `CC(C)c1cc(CN2CCC(CC(=O)O)CC2)no1` | -7.141 | - |
| 56 | `Fc1ccc(N2CCCN(c3ccc(Cn4ccnc4)cn3)CC2)cc1` | 68.18 | 63.92 |

Data taken from ChEMBL document CHEMBL3988442, “University of Dundee, Small-Polar-MMV Screening Library” (2021).